Assay results: US8906832B2, “Quantitative analysis of carbohydrate-protein interactions using glycan microarrays: determination of surface and solution dissociation constants” (Academia Sinica, priority 2008, dated 2014)

Tested on: human monoclonal antibody 2G12
Experiment: Direct binding assay on glycan microarray, antibody 2G12
Settings: carbohydrates printed at 100 μM

NCCCCCO[C@H]1O[C@H](CO)[C@@H](O)[C@H](O)[C@@H]1O
interaction with 2G12: no interaction
